PSTVd loop 6 mutant pool in Nicotiana benthamiana

Reference: Wu et al. 2024, doi:10.1371/journal.ppat.1012142.

Region: loop 6 of PSTVd (intermediate strain), upper and lower strand joined, each 5' to 3', the first 5 letters being the upper strand, closing pairs included. Wild type: UGACCGCGAG. Varied positions (N): UNNNCGNNNG.

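A pool of all variants was put on leaves of three Nicotiana benthamiana plants. Samples came from the inoculated region at 5 days, the leaf margin at 10 and upper systemic leaves at 12.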

Values are reads per thousand in the sample; higher means more abundant, 0 means not found.
Each site shows the three plants.
"Pool" is the share in the plasmid pool used as inoculum, on the same scale.
The inoculated region was read from the minus strand, the other sites from the plus strand.
IR is the inoculated region, LM the leaf margin, Sys the systemic leaves.
Samples held 36,220 to 57,551 reads, so the smallest values rest on one or two reads.
Wild type was 20.7 per thousand in the pool and the most common sequence in every sample (inoculated region 195, 198, 203; leaf margin 629, 591, 734; systemic leaves 942, 870, 868).
The authors trace changes outside the varied positions to PCR and sequencing errors or to mutation in the plant; presence does not show that a variant is infectious alone.

{"sequence": "UUCACGCCUG", "pool": "0.288", "IR": "0.0869 0.144 0.0553", "LM": "0 0 0.0232", "Sys": "0 0 0.0205"}
{"sequence": "UUCACGCGAG", "pool": "0.327", "IR": "0.139 0.198 0.221", "LM": "0.221 0 0", "Sys": "0.0180 0.0808 0.164"}
{"sequence": "UUCACGCGAU", "pool": "0.0131", "IR": "0 0 0.0738", "LM": "0 0 0", "Sys": "0 0 0"}
{"sequence": "UUCACGCGCG", "pool": "0.261", "IR": "0.0695 0.144 0.129", "LM": "0 0 0", "Sys": "0 0 0"}
{"sequence": "UUCACGCGGG", "pool": "0.261", "IR": "0.0695 0.0539 0.0369", "LM": "0 0 0.0464", "Sys": "0 0 0"}
{"sequence": "UUCACGCGUG", "pool": "0.183", "IR": "0.139 0.126 0.0738", "LM": "0 0 0.0232", "Sys": "0 0 0"}
{"sequence": "UUCACGCUAG", "pool": "0.118", "IR": "0.209 0.0719 0.0553", "LM": "0.0552 0 0", "Sys": "0 0 0"}
{"sequence": "UUCACGCUCG", "pool": "0.183", "IR": "0.122 0.108 0.0369", "LM": "0.0276 0 0", "Sys": "0 0 0"}
{"sequence": "UUCACGCUGG", "pool": "0.222", "IR": "0.139 0.0898 0.0922", "LM": "0 0 0", "Sys": "0 0 0"}
{"sequence": "UUCACGCUUG", "pool": "0.248", "IR": "0.104 0.144 0.0369", "LM": "0 0 0.0232", "Sys": "0 0 0"}
{"sequence": "UUCACGGAAG", "pool": "0.196", "IR": "0.591 0.539 0.516", "LM": "0.166 0.0504 0.0464", "Sys": "0 0 0"}
{"sequence": "UUCACGGACG", "pool": "0.340", "IR": "0.643 0.647 0.572", "LM": "0.0276 0.101 0.0696", "Sys": "0.0539 0.0202 0"}
{"sequence": "UUCACGGAGG", "pool": "0.235", "IR": "0.139 0.126 0.0553", "LM": "0 0 0.0232", "Sys": "0 0 0"}
{"sequence": "UUCACGGAUG", "pool": "0.288", "IR": "0.139 0.0719 0.111", "LM": "0.0276 0 0", "Sys": "0 0 0"}
{"sequence": "UUCACGGCAG", "pool": "0.183", "IR": "0.869 0.736 0.553", "LM": "0.110 0.126 0", "Sys": "0 0 0"}
{"sequence": "UUCACGGCCG", "pool": "0.261", "IR": "0.521 0.647 0.535", "LM": "0.138 0.0252 0.116", "Sys": "0 0 0"}
{"sequence": "UUCACGGCGG", "pool": "0.275", "IR": "0.122 0.0719 0.0553", "LM": "0.0276 0 0", "Sys": "0 0 0"}
{"sequence": "UUCACGGCUG", "pool": "0.314", "IR": "0.104 0.108 0.148", "LM": "0 0 0", "Sys": "0 0 0"}
{"sequence": "UUCACGGGAG", "pool": "0.327", "IR": "0.660 0.844 0.424", "LM": "0 0.0757 0.0696", "Sys": "0 0 0"}
{"sequence": "UUCACGGGCG", "pool": "0.183", "IR": "0.122 0.0539 0.0369", "LM": "0 0 0", "Sys": "0 0 0"}
{"sequence": "UUCACGGGGG", "pool": "0.131", "IR": "0.104 0.0898 0.203", "LM": "0 0 0", "Sys": "0 0 0"}
{"sequence": "UUCACGGGUG", "pool": "0.248", "IR": "0.0869 0.126 0.0369", "LM": "0.0276 0 0", "Sys": "0.0180 0 0.0205"}
{"sequence": "UUCACGGUAG", "pool": "0.275", "IR": "0.695 0.683 0.350", "LM": "0.0828 0.0757 0.0232", "Sys": "0 0 0"}
{"sequence": "UUCACGGUCG", "pool": "0.301", "IR": "0.695 0.736 0.424", "LM": "0.0828 0.101 0.0696", "Sys": "0 0 0"}
{"sequence": "UUCACGGUGG", "pool": "0.327", "IR": "0.122 0.0539 0.0738", "LM": "0 0 0", "Sys": "0 0 0"}
{"sequence": "UUCACGGUUG", "pool": "0.366", "IR": "0.0869 0.0898 0.129", "LM": "0 0 0", "Sys": "0 0 0"}
{"sequence": "UUCACGUAAG", "pool": "0.157", "IR": "0.0695 0.0898 0.0553", "LM": "0.0276 0 0", "Sys": "0 0 0"}
{"sequence": "UUCACGUACG", "pool": "0.288", "IR": "0.782 0.665 0.369", "LM": "0.138 0.0757 0.0464", "Sys": "0 0 0"}
{"sequence": "UUCACGUAGG", "pool": "0.248", "IR": "0.191 0.0719 0.0369", "LM": "0 0 0.0232", "Sys": "0 0 0"}

The opening 2 entries, copied out:

sequence	pool	IR	LM	Sys
UUCACGCCUG	0.288	0.0869 0.144 0.0553	0 0 0.0232	0 0 0.0205
UUCACGCGAG	0.327	0.139 0.198 0.221	0.221 0 0	0.0180 0.0808 0.164